# Results as given in article PMC9104152, “Phosphoproteomics Unravel HBV Triggered Rewiring of Host Phosphosignaling Events” (International Journal of Molecular Sciences, 2022).
# B1: P08833 1xPhospho [S194(100)] (protein, UniProt P08833 26-259, looked up)
# Insulin-like growth …: APWQCAPCSAEKLALCPPVSASCSEVTRSAGCGCCPMCALPLGAACGVATARCARGLSCRALPGEQQPLHALTRGQGACVQESDASAPHAAEAGSPESPESTEITEEELLDNFHLMAPSEEDHSILWDAISTYDGSKALHVTNIKKWKEPCRIELYRVVESLAKAQETSGEEISKFYLPNCNKNGFYHSRQCETSMDGEAGLCWCVYPWNGKRIPGSPEIRGDPNCQIYFNVQN
# modifications: phosphorylated S194
# B2: O43719 2xPhospho [S713(100); S714(100)] (protein, UniProt O43719 2-755, looked up)
# 17S U2 SnRNP complex …: SGTNLDGNDEFDEQLRMQELYGDGKDGDTQTDAGGEPDSLGQQPTDTPYEWDLDKKAWFPKITEDFIATYQANYGFSNDGASSSTANVEDVHARTAEEPPQEKAPEPTDARKKGEKRKAESGWFHVEEDRNTNVYVSGLPPDITVDEFIQLMSKFGIIMRDPQTEEFKVKLYKDNQGNLKGDGLCCYLKRESVELALKLLDEDEIRGYKLHVEVAKFQLKGEYDASKKKKKCKDYKKKLSMQQKQLDWRPERRAGPSRMRHERVVIIKNMFHPMDFEDDPLVLNEIREDLRVECSKFGQIRKLLLFDRHPDGVASVSFRDPEEADYCIQTLDGRWFGGRQITAQAWDGTTDYQVEETSREREERLRGWEAFLNAPEANRGLRRSDSVSASERAGPSRARHFSEHPSTSKMNAQETATGMAFEEPIDEKKFEKTEDGGEFEEGASENNAKESSPEKEAEEGCPEKESEEGCPKRGFEGSCSQKESEEGNPVRGSEEDSPKKESKKKTLKNDCEENGLAKESEDDLNKESEEEVGPTKESEEDDSEKESDEDCSEKQSEDGSEREFEENGLEKDLDEEGSEKELHENVLDKELEENDSENSEFEDDGSEKVLDEEGSEREFDEDSDEKEEEEDTYEKVFDDESDEKEDEEYADEKGLEAADKKAEEGDADEKLFEESDDKEDEDADGKEVEDADEKLFEDDDSNEKLFDEEEDSSEKLFDDSDERGTLGGFGSVEEGPLSTGSSFILSSDDDDDDI
# modifications: phosphorylated S713, S714
# B3: Q9Y2K7 1xPhospho [S869(100)] (protein, UniProt Q9Y2K7 1-1162, looked up)
# Lysine-specific demethylase 2A: MEPEEERIRYSQRLRGTMRRRYEDDGISDDEIEGKRTFDLEEKLHTNKYNANFVTFMEGKDFNVEYIQRGGLRDPLIFKNSDGLGIKMPDPDFTVNDVKMCVGSRRMVDVMDVNTQKGIEMTMAQWTRYYETPEEEREKLYNVISLEFSHTRLENMVQRPSTVDFIDWVDNMWPRHLKESQTESTNAILEMQYPKVQKYCLMSVRGCYTDFHVDFGGTSVWYHIHQGGKVFWLIPPTAHNLELYENWLLSGKQGDIFLGDRVSDCQRIELKQGYTFVIPSGWIHAVYTPTDTLVFGGNFLHSFNIPMQLKIYNIEDRTRVPNKFRYPFYYEMCWYVLERYVYCITNRSHLTKEFQKESLSMDLELNGLESGNGDEEAVDREPRRLSSRRSVLTSPVANGVNLDYDGLGKTCRSLPSLKKTLAGDSSSDCSRGSHNGQVWDPQCAPRKDRQVHLTHFELEGLRCLVDKLESLPLHKKCVPTGIEDEDALIADVKILLEELANSDPKLALTGVPIVQWPKRDKLKFPTRPKVRVPTIPITKPHTMKPAPRLTPVRPAAASPIVSGARRRRVRCRKCKACVQGECGVCHYCRDMKKFGGPGRMKQSCVLRQCLAPRLPHSVTCSLCGEVDQNEETQDFEKKLMECCICNEIVHPGCLQMDGEGLLNEELPNCWECPKCYQEDSSEKAQKRKMEESDEEAVQAKVLRPLRSCDEPLTPPPHSPTSMLQLIHDPVSPRGMVTRSSPGAGPSDHHSASRDERFKRRQLLRLQATERTMVREKENNPSGKKELSEVEKAKIRGSYLTVTLQRPTKELHGTSIVPKLQAITASSANLRHSPRVLVQHCPARTPQRGDEEGLGGEEEEEEEEEEEDDSAEEGGAARLNGRGSWAQDGDESWMQREVWMSVFRYLSRRELCECMRVCKTWYKWCCDKRLWTKIDLSRCKAIVPQALSGIIKRQPVSLDLSWTNISKKQLTWLVNRLPGLKDLLLAGCSWSAVSALSTSSCPLLRTLDLRWAVGIKDPQIRDLLTPPADKPGQDNRSKLRNMTDFRLAGLDITDATLRLIIRHMPLLSRLDLSHCSHLTDQSSNLLTAVGSSTRYSLTELNMAGCNKLTDQTLIYLRRIANVTLIDLRGCKQITRKACEHFISDLSINSLYCLSDEKLIQKIS
# modifications: phosphorylated S869
# B4: Q14161 2xPhospho [S/T] (protein, UniProt Q14161 1-759, looked up)
# ARF GTPase-activating protein …: MSKRLRSSEVCADCSGPDPSWASVNRGTFLCDECCSVHRSLGRHISQVRHLKHTPWPPTLLQMVETLYNNGANSIWEHSLLDPASIMSGRRKANPQDKVHPNKAEFIRAKYQMLAFVHRLPCRDDDSVTAKDLSKQLHSSVRTGNLETCLRLLSLGAQANFFHPEKGNTPLHVASKAGQILQAELLAVYGADPGTQDSSGKTPVDYARQGGHHELAERLVEIQYELTDRLAFYLCGRKPDHKNGQHFIIPQMADSSLDLSELAKAAKKKLQSLSNHLFEELAMDVYDEVDRRETDAVWLATQNHSALVTETTVVPFLPVNPEYSSTRNQGRQKLARFNAHEFATLVIDILSDAKRRQQGSSLSGSKDNVELILKTINNQHSVESQDNDQPDYDSVASDEDTDLETTASKTNRQKSLDSDLSDGPVTVQEFMEVKNALVASEAKIQQLMKVNNNLSDELRIMQKKLQTLQSENSNLRKQATTNVYQVQTGSEYTDTSNHSSLKRRPSARGSRPMSMYETGSGQKPYLPMGEASRPEESRMRLQPFPAHIGRSALVTSSSSLPSFPSTLSWSRDESARRASRLEKQNSTPESDYDNTPNDMEPDGMGSSRKGRQRSMVWPGDGLVPDTAEPHVAPSPTLPSTEDVIRKTEQITKNIQELLRAAQENKHDSYIPCSERIHVAVTEMAALFPKKPKSDMVRTSLRLLTSSAYRLQSECKKTLPGDPGSPTDVQLVTQQVIQCAYDIAKAAKQLVTITTKENNN
# modifications: diphosphorylated
# B5: O00178 2xPhospho [S] (protein, UniProt O00178 1-669, looked up)
# GTP-binding protein 1: MATERSRSAMDSPVPASMFAPEPSSPGAARAAAAAARLHGGFDSDCSEDGEALNGEPELDLTSKLVLVSPTSEQYDSLLRQMWERMDEGCGETIYVIGQGSDGTEYGLSEADMEASYATVKSMAEQIEADVILLRERQEAGGRVRDYLVRKRVGDNDFLEVRVAVVGNVDAGKSTLLGVLTHGELDNGRGFARQKLFRHKHEIESGRTSSVGNDILGFDSEGNVVNKPDSHGGSLEWTKICEKSTKVITFIDLAGHEKYLKTTVFGMTGHLPDFCMLMVGSNAGIVGMTKEHLGLALALNVPVFVVVTKIDMCPANILQETLKLLQRLLKSPGCRKIPVLVQSKDDVIVTASNFSSERMCPIFQISNVTGENLDLLKMFLNLLSPRTSYREEEPAEFQIDDTYSVPGVGTVVSGTTLRGLIKLNDTLLLGPDPLGNFLSIAVKSIHRKRMPVKEVRGGQTASFALKKIKRSSIRKGMVMVSPRLNPQASWEFEAEILVLHHPTTISPRYQAMVHCGSIRQTATILSMDKDCLRTGDKATVHFRFIKTPEYLHIDQRLVFREGRTKAVGTITKLLQTTNNSPMNSKPQQIKMQSTKKGPLTKRDEGGPSGGPAVGAPPPGDEASSVGAGQPAASSNLQPQPKPSSGGRRRGGQRHKVKSQGACVTPASGC
# modifications: diphosphorylated
# B6: Q9UGU5 2xPhospho [S512(100); S/T] (protein, UniProt Q9UGU5 1-601, looked up)
# HMG domain-containing protein …: MAYDDSVKKEDCFDGDHTFEDIGLAAGRSQREKKRSYKDFLREEEEIAAQVRNSSKKKLKDSELYFLGTDTHKKKRKHSSDDYYYGDISSLESSQKKKKKSSPQSTDTAMDLLKAITSPLAAGSKPSKKTGEKSSGSSSHSESKKEHHRKKVSGSSGELPLEDGGSHKSKKMKPLYVNTETLTLREPDGLKMKLILSPKEKGSSSVDEESFQYPSQQATVKKSSKKSARDEQGALLLGHELQSFLKTARKKHKSSSDAHSSPGPEGCGSDASQFAESHSANLDLSGLEPILVESDSSSGGELEAGELVIDDSYREIKKKKKSKKSKKKKDKEKHKEKRHSKSKRSLGLSAVPVGEVTVTSGPPPSIPYAGAAAPPLPLPGLHTDGHSEKKKKKEEKDKERERGEKPKKKNMSAYQVFCKEYRVTIVADHPGIDFGELSKKLAEVWKQLPEKDKLIWKQKAQYLQHKQNKAEATTVKRKASSSEGSMKVKASSVGVLSPQKKSPPTTMLLPASPAKAPETEPIDVAAHLQLLGESLSLIGHRLQETEGMVAVSGSLSVLLDSIICALGPLACLTTQLPELNGCPKQVLSNTLDNIAYIMPGL
# modifications: diphosphorylated incl. S512
# B7: P19823 1xPhospho [S60(100)] (protein, UniProt P19823 55-702, looked up)
# Inter-alpha-trypsin inhibitor …: SLPGESEEMMEEVDQVTLYSYKVQSTITSRMATTMIQSKVVNNSPQPQNVVFDVQIPKGAFISNFSMTVDGKTFRSSIKEKTVGRALYAQARAKGKTAGLVRSSALDMENFRTEVNVLPGAKVQFELHYQEVKWRKLGSYEHRIYLQPGRLAKHLEVDVWVIEPQGLRFLHVPDTFEGHFDGVPVISKGQQKAHVSFKPTVAQQRICPNCRETAVDGELVVLYDVKREEKAGELEVFNGYFVHFFAPDNLDPIPKNILFVIDVSGSMWGVKMKQTVEAMKTILDDLRAEDHFSVIDFNQNIRTWRNDLISATKTQVADAKRYIEKIQPSGGTNINEALLRAIFILNEANNLGLLDPNSVSLIILVSDGDPTVGELKLSKIQKNVKENIQDNISLFSLGMGFDVDYDFLKRLSNENHGIAQRIYGNQDTSSQLKKFYNQVSTPLLRNVQFNYPHTSVTDVTQNNFHNYFGGSEIVVAGKFDPAKLDQIESVITATSANTQLVLETLAQMDDLQDFLSKDKHADPDFTRKLWAYLTINQLLAERSLAPTAAAKRRITRSILQMSLDHHIVTPLTSLVIENEAGDERMLADAPPQDPSCCSGALYYGSKVVPDSTPSWANPSPTPVISMLAQGSQVLESTPPPHVMRVEND
# modifications: phosphorylated S60
# B8: P19823 1xPhospho [S60(99.6)] (protein, UniProt P19823 55-702, looked up)
# Inter-alpha-trypsin inhibitor …: B7 Inter-alpha-trypsin inhibitor …
# modifications: phospho S60
# B9: Q8TBA6 1xPhospho [S116(100)] (protein, UniProt Q8TBA6 2-731, looked up)
# Golgin subfamily A member 5: SWFVDLAGKAEDLLNRVDQGAATALSRKDNASNIYSKNTDYTELHQQNTDLIYQTGPKSTYISSAADNIRNQKATILAGTANVKVGSRTPVEASHPVENASVPRPSSHFVRRKKSEPDDELLFDFLNSSQKEPTGRVEIRKEKGKTPVFQSSQTSSVSSVNPSVTTIKTIEENSFGSQTHEAASNSDSSHEGQEESSKENVSSNAACPDHTPTPNDDGKSHELSNLRLENQLLRNEVQSLNQEMASLLQRSKETQEELNKARARVEKWNADHSKSDRMTRGLRAQVDDLTEAVAAKDSQLAVLKVRLQEADQLLSTRTEALEALQSEKSRIMQDQSEGNSLQNQALQTFQERLHEADATLKREQESYKQMQSEFAARLNKVEMERQNLAEAITLAERKYSDEKKRVDELQQQVKLYKLNLESSKQELIDYKQKATRILQSKEKLINSLKEGSGFEGLDSSTASSMELEELRHEKEMQREEIQKLMGQIHQLRSELQDMEAQQVNEAESAREQLQDLHDQIAGQKASKQELETELERLKQEFHYIEEDLYRTKNTLQSRIKDRDEEIQKLRNQLTNKTLSNSSQSELENRLHQLTETLIQKQTMLESLSTEKNSLVFQLERLEQQMNSASGSSSNGSSINMSGIDNGEGTRLRNVPVLFNDTETNLAGMYGKVRKAASSIDQFSIRLGIFLRRYPIARVFVIIYMALLHLWVMIVLLTYTPEMHHDQPYGK
# modifications: phospho S116
# System: HepG2-NTCP cells
# Test: TMT-based phosphoproteome profiling of HBV-infected vs mock HepG2-NTCP (HBV/mock ratio)
# Design: species or system human
# Details: phosphosite abundance ratio of host protein, HBV-infected vs mock HepG2-NTCP, 7dpi, sheet Up-regulated
row,Molecule,HBV/mock
1,B1,2.1963
2,B2,1.312
3,B3,1.334
4,B4,1.489
5,B5,1.452
6,B6,1.332
7,B7,7.369
8,B8,4.229
9,B9,1.388
